Measured values from several laboratories, pooled; numbers as filed in NIAID ChemDB.

All rows: tests in culture; agent: Rhinovirus; endpoint: inhibition

Conditions beyond the fields shown may differ between rows.

SMILES,strain,cell line,read by,dose,result
CN(C)c1nc(C(F)(F)F)nc2c1ncn2Cc1ccc(Cl)c(NC=O)c1,Serotype 15,M-HELA,plaque count,8 µM,29%
FC(F)(F)c1cccc(C2CCN(c3ccc(Br)nn3)C2)c1,17 serotypes,,,0.475 µg/mL,53%
N#Cc1cc([N+](=O)[O-])ccc1Oc1ccc(Cl)c(Cl)c1,HANK,VERO,plaque count,0.5 µg/mL,84.2%
Nc1cc(S(=O)(=O)[O-])cc2cc(S(=O)(=O)[O-])ccc12,,Human embryonic lung cells,cytopathic effect,10 µg/mL,50%
CN(C)c1nc(C(F)(F)F)nc2c1ncn2Cc1ccc(Cl)cc1Cl,Serotype 21,M-HELA,plaque count,8 µM,30%
O=S(=O)(O)c1cccc2c(O)cccc12,,Human amnion AV3 cells,cytopathic effect,5 µg/mL,0%
Cc1cc(Cl)ccc1Cn1cnc2c(N(C)C)nc(C(F)(F)F)nc21,Serotype 30,M-HELA,plaque count,8 µM,28%
O=C(O)Cc1csc(/N=C2\SC[C@@H]3Cc4ccccc4CN23)n1,Serotype 31,MRC-5,cytopathic effect,60 µg/mL,80–100%
CN(C)c1nc(C(F)(F)F)nc2c1ncn2Cc1ccccc1,Serotype 13,M-HELA,plaque count,8 µM,22%
Cc1cc(CCCCCCCOc2ccc(C3=NCCO3)cc2)on1,100 serotypes,,,3.2 µg/mL,71%
CN(C)c1ccc(Cn2cnc3c(N(C)C)nc(C(F)(F)F)nc32)cc1,Serotype 14,M-HELA,plaque count,8 µM,46%
Cc1ccc(C(=O)Nc2ccc(S(=O)(=O)O)c3cc(S(=O)(=O)O)cc(S(=O)(=O)O)c23)cc1NC(=O)c1cccc(NC(=O)Nc2cccc(C(=O)Nc3cc(C(=O)Nc4ccc(S(=O)(=O)O)c5cc(S(=O)(=O)O)cc(S(=O)(=O)O)c45)ccc3C)c2)c1,,Human embryonic lung cells,cytopathic effect,50 µg/mL,100%
CS(=O)(=O)c1ccc2c(c1)CCC(c1ccc(Cl)c(Cl)c1)O2,100 serotypes,,,0.5 µg/mL,53%
O=S(=O)([O-])c1ccc2c(NS(=O)(=O)c3ccccc3)cc(S(=O)(=O)[O-])cc2c1,,Human embryonic lung cells,cytopathic effect,5 µg/mL,0%
FC(F)(F)c1cccc(C2CCN(c3ccc(Cl)nn3)C2)c1,100 serotypes,,,0.008 µg/mL,18%

2 of the rows above, restated:

| SMILES | strain | cell line | read by | dose | result |
|---|---|---|---|---|---|
| Cc1cc(CCCCCCCOc2ccc(C3=NCCO3)cc2)on1 | 100 serotypes |  |  | 3.2 µg/mL | 71% |
| O=S(=O)([O-])c1ccc2c(NS(=O)(=O)c3ccccc3)cc(S(=O)(=O)[O-])cc2c1 |  | Human embryonic lung cells | cytopathic effect | 5 µg/mL | 0% |

An empty or dashed field is not shown. a–b is a range or a potency band. Inhibition is in % at the dose shown (toxicity tests: loss of growth or viability).